Pooled drug test results. Numbers come from NIAID ChemDB, via PubChem.

All rows: tests in culture; agent: HIV-1; endpoint: fold resistance

Fold resistance has wild type as its base. Lines come from different laboratories, so protocols vary. An empty or dashed field is not shown.

| smiles | strain or isolate | method | cell line | changes | value |
|---|---|---|---|---|---|
| COc1ccc(NC(=S)c2ccsc2C)cc1OCC=C(Cl)Cl | TIBO R82150-resistant (RT L100I) | syncytia | CEM | RT-L100I | 18 |
| Cc1c(C(=O)N[C@@H](Cc2ccccc2)[C@H](O)CN(CC(C)C)S(=O)(=O)c2ccc3nc(N)oc3c2)ccc([N+](=O)[O-])c1O | LAI | cytopathic effect / MTT | MT-4 | PR-L010F M046I M071V I084V | 6.6 |
| Cc1cc2cn[nH]c2cc1NC(=O)COc1ccc(Cl)cc1C(=O)c1cccc(C#N)c1 | HXB2 | β-galactosidase | HeLa + HELA CD4+ | RT-L100I | ~1 |
| CC(C)CN(C[C@@H](O)[C@H](Cc1ccccc1)NC(=O)OCc1cnco1)S(=O)(=O)c1ccc2nc(N)oc2c1 | LAI | cytopathic effect / MTT | MT-4 | PR-L010F M046I M071V I084V | 13 |
| C[C@@H]1CCO[C@H]2Cn3cc(C(=O)NCc4ccc(F)cc4F)c(=O)c(O)c3C(=O)N12 | NL4-3 | GFP | CEM-GXR | T97A E138K G140S Q148H | 66.2 |
| Cc1ccnc(SC(F)(F)c2nc3ccccc3o2)n1 | ddI-resistant (RT L74V) |  |  | RT-L74V | 2.37 |
| C[C@@H]1CCO[C@H]2Cn3cc(C(=O)NCc4ccc(F)cc4F)c(=O)c(O)c3C(=O)N12 | NL4-3 | RT activity | CBMC | G140S/Q148H | 7.4 |
| Cc1c(C(=O)N[C@@H](Cc2ccccc2)[C@H](O)CN(CC(C)C)S(=O)(=O)c2ccc3nc(N)oc3c2)ccc(N)c1O | LAI | cytopathic effect / MTT | MT-4 | PR-L010F M046I M071V I084V | 0.98 |
| C/C(Cl)=C/COc1cc(NC(=O)c2ccoc2C)ccc1Cl | Pyridone-resistant (RT Y181C) | syncytia | CEM | RT-Y181C | 14.4 |
| Cn1c2ccccc2c2c1cc(C#N)c(=O)n2-c1ccc([N+](=O)[O-])cc1 | D | cytopathic effect / MTT | MT-4 | RT-L100I K103N | 2 |
| CC(C)=CCOc1cc(NC(=S)c2ccoc2C)ccc1Cl | NL4-3 | p24 | CEM + CEM-SS | RT-V106I | 17 |
| Cc1cc(C#N)cc(C)c1Oc1nc(Nc2ccc(C#N)cc2)ncc1SCC(=O)Nc1ccc(S(C)(=O)=O)cc1 |  | MTT | MT-4 | RES056 | 91.6 |
| CCCc1cc(=O)oc2c3c(c4c(c12)OC(C)(C)CC4)O[C@H](C)[C@@H](C)C3=O | 4xAZT resistant isolate | cytopathic effect / XTT |  | RT-D67N K70R T215Y K219Q | <6 |
| N#Cc1cc2[nH]c3ccccc3c2n(-c2ccc([N+](=O)[O-])cc2)c1=O | B | cytopathic effect / MTT | MT-4 | RT-K103N | 4 |
| Cc1cc(C#N)cc(C)c1Oc1nc(Nc2ccc(C#N)cc2)ncc1SCC(=O)NCCN1CCN(C(=O)OC(C)(C)C)CC1 |  | MTT | MT-4 | F227L V106A | 27.4 |
| COc1ccc(NC(=O)C2=C(C)OCCS2)cc1OCC=C(Cl)Cl | TSAO-m3T-resistant (RT E138K) | syncytia | CEM | RT-E138K | 2.5 |
| Cc1cc2[nH]cnc2cc1NC(=O)COc1ccc(Cl)cc1C(=O)c1cc(F)cc(C(F)(F)F)c1 | HXB2 | β-galactosidase | HeLa + HELA CD4+ | RT-Y181C | ~1 |
| CNc1nc2ccc(S(=O)(=O)N(CC(C)C)C[C@@H](O)[C@H](Cc3ccccc3)NC(=O)COc3c(C)cc([N+](=O)[O-])cc3C)cc2o1 | LAI | cytopathic effect / MTT | MT-4 | PR-L010F M046I M071V I084V | 55 |
| CCc1cc(=O)c2ccc3c(c2o1)[C@@H](OC(=O)C12CCC(C)(C(=O)O1)C2(C)C)[C@@H](OC(=O)C12CCC(C)(C(=O)O1)C2(C)C)C(C)(C)O3 | RTMDR1 | p24 | MT-4 | RT-M41L L74V V106A T215Y | 4.28 |
| CC(C)c1c(Sc2ccccc2)n(COCc2ccccc2)c(=S)[nH]c1=O | IIIB (TIBO 82150) (RT-L100I) | syncytia | CEM | RT-L100I | 2.5 |
| FC(F)(Sc1ncccn1)c1nc2ccccc2o1 | Diphenyl sulfone |  |  | RT-Y181C | >3.18 |
| C=C(Cl)COc1cc(NC(=S)c2ccoc2C)ccc1Cl | Pyridone-resistant (RT Y181C) | syncytia | CEM | RT-Y181C | 22.8 |
| Cc1cc(C#N)cc(C)c1Oc1nc(Nc2ccc(C#N)cc2)ncc1SCC(=O)NCC1CCCO1 |  | MTT | MT-4 | RES056 | 68.4 |
| C[C@H]1CO[C@@H]2Cn3cc(C(=O)NCc4ccc(F)cc4F)c(=O)c(O)c3C(=O)N12 | NL4-3 | GFP | CEM-GXR | T97A E138K G140S Q148H | 268.6 |
| Cc1cc(C#N)cc(C)c1Oc1nc(Nc2ccc(C#N)cc2)ncc1SCC(=O)NC1CCN(C(=O)OC(C)(C)C)CC1 |  | MTT | MT-4 | E138K | 6.3 |
| CCOCn1c(Sc2ccccc2)c(C(C)C)c(=O)[nH]c1=O | IIIB (TIBO 82150) (RT-L100I) | syncytia | CEM | RT-L100I | 4.4 |
| COc1ccc(NC(=S)c2ccoc2C)cc1OCC=C(Cl)Cl | TSAO-m3T-resistant (RT E138K) | syncytia | CEM | RT-E138K | 4.17 |
| C=CCNC(=O)CSc1cnc(Nc2ccc(C#N)cc2)nc1Oc1c(C)cc(C#N)cc1C |  | MTT | MT-4 | RES056 | 177.2 |
| Cc1cccc(C)c1OCC(=O)N[C@@H](Cc1ccccc1)[C@H](O)CN(CC(C)C)S(=O)(=O)c1ccc2nc(N)oc2c1 | LAI | cytopathic effect / MTT | MT-4 | PR-L010F M046I M071V I084V | 8.5 |
| Cc1cc(C#N)cc(C)c1Oc1nc(Nc2ccc(C#N)cc2)ncc1SCC(=O)NCCCN1CCOCC1 |  | MTT | MT-4 | F227L V106A | 40 |
| CCCCCCCCCCCCCCCC(=O)Nc1ccn([C@H]2CC[C@@H](COP(=O)(O)O[C@H]3C[C@H](n4cc(C)c(=O)[nH]c4=O)O[C@@H]3CO)O2)c(=O)n1 | AZT-resistant (RT D67N K70R T215Y K219Q) | cytopathic effect / XTT | CEM + CEM-SS | RT-D67N K70R T215Y K219Q | 2.8 |
| CCOCn1c(Cc2ccccc2)c(C(C)C)c(=O)[nH]c1=O | IIIB TIBO R82913-resistant (RT K103N) | syncytia | CEM | RT-K103N | 650 |
| Cc1occc1C(=O)Nc1ccc(Cl)c(SCC=C(Cl)Cl)c1 | Pyridone-resistant (RT Y181C) | syncytia | CEM | RT-Y181C | 21.5 |
| CCc1cc(C#N)cc(C(=O)c2cc(Cl)ccc2OCC(=O)Nc2ccc(S(N)(=O)=O)cc2C)c1 | Nevirapine-resistant (RT Y181C) | cytopathic effect / propidium iodide | MT-4 | RT-Y181C | ~1 |
| CCc1c(Sc2cc(C)cc(C)c2)n(COCCO)c(=O)[nH]c1=O | IIIB | syncytia | CEM | RT-Y181I | 467 |
| Cc1cc(C#N)cc(C(=O)c2cc(Cl)ccc2OCC(=O)Nc2cnc(S(N)(=O)=O)cc2C)c1 | HXB2 | β-galactosidase | HeLa + HELA CD4+ | RT-V108I | ~1 |
| Cc1cc(C#N)cc(C)c1Oc1nc(Nc2ccc(C#N)cc2)ncc1SCC(=O)NCc1ccc(O)cc1 |  | MTT | MT-4 | RES056 | 49.3 |

Repeating the final 4 entries:

smiles	strain or isolate	method	cell line	changes	value
CCc1cc(C#N)cc(C(=O)c2cc(Cl)ccc2OCC(=O)Nc2ccc(S(N)(=O)=O)cc2C)c1	Nevirapine-resistant (RT Y181C)	cytopathic effect / propidium iodide	MT-4	RT-Y181C	~1
CCc1c(Sc2cc(C)cc(C)c2)n(COCCO)c(=O)[nH]c1=O	IIIB	syncytia	CEM	RT-Y181I	467
Cc1cc(C#N)cc(C(=O)c2cc(Cl)ccc2OCC(=O)Nc2cnc(S(N)(=O)=O)cc2C)c1	HXB2	β-galactosidase	HeLa + HELA CD4+	RT-V108I	~1
Cc1cc(C#N)cc(C)c1Oc1nc(Nc2ccc(C#N)cc2)ncc1SCC(=O)NCc1ccc(O)cc1		MTT	MT-4	RES056	49.3